Anti-infective test results gathered from many reports (values: NIAID ChemDB through PubChem).

Shared fields: target-level tests; species: HIV-1; target: Integrase; measure: IC50

Rows are shuffled and stem from different studies. ICn is the concentration giving n% inhibition. a–b is a range or a potency band.

compound | read by | result
O=C1c2c(O)c(=O)ccn2C(Cc2ccccc2)CN1Cc1ccc(Cl)c(Cl)c1 | ELISA | 0.01–0.1 µM
CN(Cc1cccc(-c2ccc(F)cc2)c1)C(=O)/C=C(\O)C(=O)O | strand transfer | <70 µM
O=S(=O)(Cc1cccc2cccnc12)c1nc2ccccc2s1 | strand transfer | >1000 µM
CN(Cc1ccc(OCc2ccc(F)cc2)cc1)C(=O)/C=C(\O)C(=O)O | strand transfer | >70 µM
N#Cc1ccccc1-c1ccc(CS(=O)(=O)c2nc3ccccc3s2)cc1 | 3′ processing | 700 µM
CC(C)CN(C(=O)C(=O)N(C)C)C1CN(C)CCn2c1nc(C(=O)NCc1ccc(F)cc1)c(O)c2=O | ELISA | <10 µM
CC(C)C(O)c1cn(Cc2ccc(Cl)c(Cl)c2)c(=O)c2c(O)c(=O)ccn12 | ELISA | <0.01 µM
CC1c2nc(C(=O)NCc3ccc(F)cc3)c(O)c(=O)n2CCN1C | ELISA | <10 µM
O=C(O)/C(O)=C/C(=O)N(CCOc1ccc(F)cc1)Cc1ccc(F)cc1 | strand transfer | <70 µM
CN1CCCn2c(nc(C(=O)NCc3ccc(F)cc3)c(O)c2=O)C1(C)C | ELISA | <10 µM
CC(CCN1CCn2cc(-c3nccs3)c(=O)c(O)c2C1=O)c1ccccc1 | ELISA | 0.01–0.1 µM
Cc1ccccc1CNC(=O)/C=C(\O)C(=O)O | strand transfer | ~70 µM
O=C1c2c(O)c(=O)c(-c3nccs3)cn2CCN1Cc1ccc2ccccc2c1 | ELISA | <0.01 µM
O=C(/C=C(\O)C(=O)O)NC(c1ccc(Cl)cc1)c1ccc(Cl)cc1 | strand transfer | <70 µM
CN1CCn2c(nc(C(=O)NCc3ccc(F)cc3)c(O)c2=O)C1CN(C)S(C)(=O)=O | ELISA | <10 µM
O=C1c2c(O)c(=O)c(-c3nccs3)cn2CCN1Cc1ccc(F)c(Cl)c1 | ELISA | <0.01 µM
Cc1cc(=O)n(-c2ccccc2)n1C(=O)/C=C/c1ccco1 | 3′ processing | 520 µM
CC(C)Oc1ccc(CN2CCn3cc(-c4nccs4)c(=O)c(O)c3C2=O)cc1Cl | ELISA | 0.01–0.1 µM
O=S(=O)(c1cccc2cnccc12)n1cncn1 | 3′ processing | >1000 µM
O=c1c(-c2cccnc2)cn2ccn(Cc3cccc(Cl)c3)c(=O)c2c1O | ELISA | <0.01 µM
CN(Cc1ccccc1)C(=O)/C=C(\O)C(=O)O | strand transfer | <70 µM

2 of the rows above, restated:

{"compound": "CN1CCn2c(nc(C(=O)NCc3ccc(F)cc3)c(O)c2=O)C1CN(C)S(C)(=O)=O", "read by": "ELISA", "result": "<10 µM"}
{"compound": "CC(C)CN(C(=O)C(=O)N(C)C)C1CN(C)CCn2c1nc(C(=O)NCc1ccc(F)cc1)c(O)c2=O", "read by": "ELISA", "result": "<10 µM"}